Anti-infective test results gathered from many reports (values: NIAID ChemDB through PubChem).

Common to all: target-level tests; species: Hepatitis C virus

Blank or dashed fields: not listed here. ICn is the concentration giving n% inhibition. Conditions beyond the fields shown may differ between rows. Inhibition is in % at the dose shown (toxicity tests: loss of growth or viability). a–b is a range or a potency band.

{"structure": "O=C(O)c1ccc2c(c1)nc(-c1ccc3nc(-c4ccc5c(c4)CCCC5)ccc3c1)n2C1CCCCC1", "protein": "NS5B polymerase", "measure": "inhibition", "dose": "100 µM", "result": "99.82%"}
{"structure": "CC(C)CCC(=O)N(C)c1cc(-c2ccccc2)sc1C(=O)O", "protein": "NS3 ATPase", "measure": "IC50", "result": "5–20 µM"}
{"structure": "CCOC(=O)c1cc2nc(-c3ccc(F)cc3)cc(-c3ccccc3Cl)n2n1", "protein": "RNA-dependent RNA polymerase", "measure": "IC50", "result": ">10 µM"}
{"structure": "O=C(Nc1cccc(-c2nc(C(=O)O)c(O)c(=O)[nH]2)c1)NC(c1ccccc1)c1ccccc1", "protein": "HCV polymerase", "measure": "IC50", "result": "<100 µM"}
{"structure": "O=C(O)c1ccc2c(c1)nc(-c1ccc3nc(-c4cc5ccccc5o4)ccc3c1)n2C1CCCCC1", "protein": "NS5B polymerase", "measure": "inhibition", "dose": "100 µM", "result": "100%"}
{"structure": "O=C(O)c1cnn2c(C3CCCCC3)c(-c3ccccc3)cnc12", "protein": "RNA-dependent RNA polymerase", "measure": "IC50", "result": "<1 µM"}
{"structure": "O=C(O)c1nc(-c2ccccc2NS(=O)(=O)c2cccc(C(F)(F)F)c2)[nH]c(=O)c1O", "protein": "HCV polymerase", "measure": "IC50", "result": "<100 µM"}
{"structure": "CCc1cc2cc(-c3cnc4cc(C(=O)O)nn4c3C3CCCCC3)ccc2o1", "protein": "RNA-dependent RNA polymerase", "measure": "IC50", "result": "1–10 µM"}
{"structure": "CCOc1ccc(-c2ccc(OC)cc2-c2ccc3cc(-c4nc5cc(C(=O)O)ccc5n4C4CCCCC4)ccc3n2)cc1", "protein": "NS5B polymerase", "measure": "inhibition", "dose": "33 µM", "result": "100%"}
{"structure": "CCOC(=O)c1cc2nc(-c3ccccc3)cc(-c3ccc(Cl)cc3)n2n1", "protein": "RNA-dependent RNA polymerase", "measure": "IC50", "result": ">10 µM"}
{"structure": "CNC(=O)c1c(-c2ccc(F)cc2)oc2cc(C(C)=O)c(OC(C)C)cc12", "protein": "Nonstructural protein 5B", "measure": "IC50", "result": "≤0.5 µM"}
{"structure": "O=C(O)c1ccc2c(c1)nc(-c1ccc3nc(-c4ccccc4)cc(Sc4ccccc4)c3c1)n2C1CCCCC1", "protein": "NS5B polymerase", "measure": "inhibition", "dose": "100 µM", "result": "100%"}
{"structure": "CNC(=O)c1c(-c2ccc(F)cc2)oc2cc(-c3noc(C)n3)c(OC(C)C)cc12", "protein": "Nonstructural protein 5B", "measure": "IC50", "result": "≤0.5 µM"}
{"structure": "O=C(O)c1sc(-c2ccccc2)cc1NS(=O)(=O)c1cc(Cl)c(O)c(Cl)c1", "protein": "NS3 ATPase", "measure": "IC50", "result": "5–20 µM"}
{"structure": "CC(C)S(=O)(=O)c1csc(C(=O)Nc2ccsc2-c2nc(C(=O)O)c(O)c(=O)[nH]2)c1", "protein": "HCV polymerase", "measure": "IC50", "result": "<25 µM"}
{"structure": "CNC(=O)c1c(-c2ccc(F)cc2)oc2cc(N(C)S(C)(=O)=O)c(OCC3CC3)cc12", "protein": "Nonstructural protein 5B", "measure": "IC50", "result": "≤0.5 µM"}
{"structure": "O=C(NCc1ccccc1OC(F)(F)F)Nc1cccc(-c2nc(C(=O)O)c(O)c(=O)[nH]2)c1", "protein": "HCV polymerase", "measure": "IC50", "result": "<100 µM"}
{"structure": "CN(C)c1ccc(-c2nc3ccc(-c4nc5cc(C(=O)O)ccc5n4C4CCCCC4)cc3nc2-c2ccc(N(C)C)cc2)cc1", "protein": "NS5B polymerase", "measure": "inhibition", "dose": "33 µM", "result": "100%"}
{"structure": "O=C(Nc1ccsc1-c1nc(C(=O)O)c(O)c(=O)[nH]1)OCc1cccc(CCc2ccccc2)c1", "protein": "HCV polymerase", "measure": "IC50", "result": "<25 µM"}
{"structure": "CCOCCOc1ccc(-c2ccc(Cl)cc2)c(-c2ccc3cc(-c4nc5cc(C(=O)O)ccc5n4C4CCCCC4)ccc3n2)c1", "protein": "NS5B polymerase", "measure": "inhibition", "dose": "100 µM", "result": "101%"}
{"structure": "O=C(O)c1cnn2c(C3CCCCC3)c(-c3cncnc3)cnc12", "protein": "RNA-dependent RNA polymerase", "measure": "IC50", "result": ">10 µM"}
{"structure": "CC(C)(C)OC(N)=NCCNc1cc(-c2ccccc2)nc2ccc(-c3nc4cc(C(=O)O)ccc4n3C3CCCCC3)cc12", "protein": "NS5B polymerase", "measure": "inhibition", "dose": "33 µM", "result": "95.64%"}
{"structure": "COc1ccc(OC)c(COc2ccc(-c3cnc4c(-c5nn[nH]n5)cnn4c3C3CCCCC3)cc2)c1", "protein": "RNA-dependent RNA polymerase", "measure": "IC50", "result": "1–10 µM"}
{"structure": "CCN(C(=O)C1CCC1)c1cc(-c2ccccc2)sc1C(=O)O", "protein": "NS3 ATPase", "measure": "IC50", "result": "5–20 µM"}
{"structure": "O=C(Nc1cc(Cl)cc(-c2nc(C(=O)O)c(O)c(=O)[nH]2)c1NS(=O)(=O)c1ccc2ccccc2c1)c1cccs1", "protein": "HCV polymerase", "measure": "IC50", "result": "<100 µM"}
{"structure": "O=S(=O)(Nc1cnn2c(C3CCCCC3)c(-c3ccc(OCc4ccccc4)cc3)cnc12)c1cccs1", "protein": "RNA-dependent RNA polymerase", "measure": "IC50", "result": ">10 µM"}
{"structure": "Cc1ccc(S(=O)(=O)Nc2cc(-c3ccc(/C=C/C(=O)O)cc3)sc2C(=O)O)c(C)c1", "protein": "NS3 ATPase", "measure": "IC50", "result": "<5 µM"}
{"structure": "CNC(=O)c1c(-c2ccc(F)cc2)oc2cc(C(C)O)c(OC(C)C)cc12", "protein": "Nonstructural protein 5B", "measure": "IC50", "result": "≤0.5 µM"}
{"structure": "COc1ccc(-c2ccccc2F)c(-c2ccc3cc(-c4nc5cc(C(=O)O)ccc5n4C4CCCCC4)ccc3n2)c1", "protein": "NS5B polymerase", "measure": "inhibition", "dose": "100 µM", "result": "100%"}
{"structure": "CC(C)(C)c1ccc(CN(C(=O)CC2CCCC2)c2cc(-c3ccccc3)sc2C(=O)O)cc1", "protein": "NS3 ATPase", "measure": "IC50", "result": "<5 µM"}
{"structure": "O=C(NCc1ccccc1C(F)(F)F)Nc1cccc(-c2nc(C(=O)O)c(O)c(=O)[nH]2)c1", "protein": "HCV polymerase", "measure": "IC50", "result": "<100 µM"}

For reference, 3 entries again:

structure,protein,measure,dose,result
O=C(O)c1sc(-c2ccccc2)cc1NS(=O)(=O)c1cc(Cl)c(O)c(Cl)c1,NS3 ATPase,IC50,,5–20 µM
CCOCCOc1ccc(-c2ccc(Cl)cc2)c(-c2ccc3cc(-c4nc5cc(C(=O)O)ccc5n4C4CCCCC4)ccc3n2)c1,NS5B polymerase,inhibition,100 µM,101%
CNC(=O)c1c(-c2ccc(F)cc2)oc2cc(C(C)=O)c(OC(C)C)cc12,Nonstructural protein 5B,IC50,,≤0.5 µM